# Measurements reported in BindingDB's records for doi:10.1016/j.bmcl.2010.05.049 (University of Athens, 2010).
# Molecular target: T1, Matrix protein 2 (Influenza A virus (strain A/Chicken/Weybridge H7N7), UniProt P05778)
# T1 sequence (P05778 whole entry): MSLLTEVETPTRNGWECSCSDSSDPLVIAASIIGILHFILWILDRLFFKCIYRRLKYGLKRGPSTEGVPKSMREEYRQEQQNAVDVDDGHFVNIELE
# Experiment: Binding affinity to Influenza A Weybridge(H7N7) virus Matrix protein 2 by spectrophotometry
smiles,measurement,value
C[C@@H](N)C12CC3CC(CC(C3)C1)C2 [(alpha-methyl-1-adamantyl)methylamine],Kd,16 nM
